Results of unrelated studies side by side (data: NIAID ChemDB).

All rows: target-level tests; organism: HIV-1; protein: Reverse transcriptase; measure: fold resistance

Fold resistance: result on the changed form divided by that on wild type. Neighbouring rows are from separate reports. Two numbers with a dash give a range or band. An empty or dashed field is not shown.

SMILES,strain,mutations,method,result
Cc1occc1C(=S)Nc1ccc(Cl)c(C(=O)OCC2CC2)c1,,RT-V106A,nucleotide incorporation / radiometric,>8.33
CCN1c2ncc(CCOc3ccc(NC(=O)c4ccc(Cl)nc4)cc3C)cc2C(=O)N(C)c2cccnc21,IIIB,RT-K103N Y181C,nucleotide incorporation / radiometric,1
CCc1ccc(-n2c(CF)nnc2SCC(=O)Nc2ccc(C(=O)O)cc2Cl)c2ccccc12,,RT-Y188L,nucleotide incorporation / radiometric,>2
CCN1c2ncc(CCOc3ccc(C(=O)O)c4c3CCN(S(C)(=O)=O)C4)cc2C(=O)N(C)c2cccnc21,,RT-V106A,nucleotide incorporation / radiometric,>10
CCN1c2ncc(CCOc3ccc(NC(=O)c4ccc(C(=O)O)cc4)cc3C)cc2C(=O)N(C)c2cccnc21,IIIB,RT-K103N Y181C,nucleotide incorporation / radiometric,1
CCN1c2ncc(CCOc3ccc(C(=O)O)c4c3CCN(S(=O)(=O)N(C)C)C4)cc2C(=O)N(C)c2cccnc21,,RT-K103N Y181C,nucleotide incorporation / radiometric,1
CC[C@H]1C(=O)Nc2ccc(F)cc2N1C(=O)OC(C)C,,RT-W229F,radiometric,2
CC(C)=CCN1Cc2cc(Cl)cc3[nH]c(=O)n(c23)C[C@@H]1C,,RT-Y181C,RT activity,60
Nc1nc2c(ncn2[C@H]2CC[C@@H](COP(=O)(O)OP(=O)(O)OP(=O)(O)O)O2)c(=O)[nH]1,,RT-W229Y,radiometric,1.35
CC1C(Sc2nnnn2-c2cccc3ccccc23)C1c1ccccc1Cl,,RT-K103N Y181C,fluorescence,≥1.33
COC(=O)[C@@H](NC(=O)c1ccc(NC(=O)CSc2nnc(Br)n2-c2ccc(C3CC3)c3ccccc23)c(Cl)c1)C(C)C,,RT-Y188L,nucleotide incorporation / radiometric,>1
CCN1c2ncc(CCOc3cccc4c3CN(C)C(=O)N4C)cc2C(=O)Nc2c(C)ccnc21,IIIB,RT-K103N Y181C,nucleotide incorporation / radiometric,>2
C=C1c2cc(CCOc3ccc(NS(C)(=O)=O)c4ccccc34)cnc2N(CC)c2ncccc2N1C,,RT-Y188L,nucleotide incorporation / radiometric,>10
CCN1c2ncc(CCOc3cccc4c3CNC(=O)N4CC(=O)O)cc2C(=O)N(C)c2cccnc21,IIIB,RT-K103N Y181C,nucleotide incorporation / radiometric,>2
CCOCn1c(Cc2ccccc2)c(C(C)C)c(=O)[nH]c1=O,,RT-W229Y,radiometric,8.44
C=Cc1cc(N(C)C)nc(SCc2ccc(OC)cc2)n1,,RT-Y181I,nucleotide incorporation / radiometric,>1.23
CCN1c2ncc(CCOc3ccc(C(=O)NNCC(=O)O)cc3C)cc2C(=O)N(C)c2cccnc21,IIIB,RT-K103N Y181C,nucleotide incorporation / radiometric,>2
C=CCO/N=C/c1cc(NC(=S)c2ccoc2C)ccc1Cl,,RT-V106A,nucleotide incorporation / radiometric,3.33
COc1ccc2c(c1)N(C(=O)OC(C)C)[C@@H](CSC)C(=S)N2,,RT-W229F,radiometric,1.15
Cc1c(Cc2ccccc2)nc(NCCCCN)[nH]c1=O,,RT-K103N,,>10.3
CCN1c2ncc(CCOc3ccc(C(=O)O)c4c3CCCC4)cc2C(=O)N(C)c2ccc(Cl)nc21,,RT-V106A,nucleotide incorporation / radiometric,>10
CC(C)Nc1cccnc1N1CCN(C(=O)c2cc3ccc(O)cc3[nH]2)CC1,,RT-Y188L,scintillation proximity,2.27
CCN1c2ncc(CCOc3ccc(C4CC4C(=O)O)c4ccccc34)cc2C(=O)N(C)c2ccc(F)nc21,,RT-Y188L,nucleotide incorporation / radiometric,1–10
CCN1c2ncc(CCc3ccccc3)cc2C(=O)N(C)c2ccc(Cl)nc21,IIIB,RT-K103N,RT activity,38
CCCc1cc(=O)oc2c3c(c4c(c12)OC(C)(C)C=C4)O[C@H](C)C[C@@H]3O,,RT-Y188H,nucleotide incorporation / radiometric,12
CCOC(=O)CCNC(=O)c1ccc(NC(=O)CSc2nnc(Br)n2-c2ccc(CC)c3ccccc23)c(Cl)c1,,RT-Y188L,nucleotide incorporation / radiometric,>1
CCC(=O)c1ccc(F)c([C@H]2C[C@H]2NC(=O)Nc2ccc(Br)cn2)c1O,IIIB,RT-L100I,,2.92
COc1ccc2cccc(-n3c(Br)nnc3SCC(=O)Nc3ccc(C(=O)O)cc3Cl)c2c1,,RT-Y188L,nucleotide incorporation / radiometric,>2
CCc1cc(CCc2nc3ccccc3o2)c(=O)[nH]c1C,,RT-Y181H,nucleotide incorporation,31.9
CCN1c2ncc(CCOc3ccc4on(C(C)(C)C)c(=O)c4c3)cc2C(=O)Nc2c(C)cc(F)nc21,IIIB,RT-K103N Y181C,nucleotide incorporation / radiometric,>1
Cc1cc(C)cc(S(=O)(=O)c2c(C(=O)NCCO)[nH]c3ccc(Cl)cc23)c1,,RT-Y188L,nucleotide incorporation / radiometric,>8000
CCN1c2ncc(CCOc3cccc4c3ccc[n+]4[O-])cc2C(=O)N(C)c2ccc(Cl)nc21,,RT-K103N L100I,nucleotide incorporation / radiometric,4.4
CCOCn1c(Sc2ccccc2)c(CC)c(=O)[nH]c1=O,,RT-Y181I,nucleotide incorporation,22
CCOC(=O)C(=O)CC(=O)/C=C/c1cccn1Cc1ccccc1Cl,,N474A,RNase H / radiometric,12.2
CCN1c2ncc(CCOc3ccc4c(c3)CNC(=O)N4)cc2C(=O)N(C)c2cccnc21,IIIB,RT-K103N Y181C,nucleotide incorporation / radiometric,>1
C=Cc1nc(SC)nc(N(C)C)c1Cl,,RT-K103N,nucleotide incorporation / radiometric,>4.4
O=C1Nc2ccc(Cl)cc2C(C#CC2CCCCC2)(C(F)(F)F)O1,A17,RT-K103N Y181C,nucleotide incorporation,2.53
CC(C)=CCOc1cc(NC(=S)c2ccsc2C)ccc1Cl,,RT-Y188L,,175
Cc1cc(S(N)(=O)=O)ccc1NC(=O)COc1ccccc1C(=O)c1cc(Cl)cc(C#N)c1,NNRTI-resistant,RT-K103N,nucleotide incorporation / radiometric,0.6
CC(C)(C)c1ccc(-n2nnnc2SCC(=O)Nc2ccccc2Cl)c(Br)c1,,RT-K103N Y181C,fluorescence,>1.5
CCN1C(=O)c2cc(CCOc3cccc4c3CNC(=O)N4)cnc2N(CC)c2ncccc21,IIIB,RT-K103N Y181C,nucleotide incorporation / radiometric,>2
O=C(CSc1nnnn1-c1c(Cl)cccc1Cl)Nc1ccccc1[N+](=O)[O-],,RT-K103N Y181C,fluorescence,>2
CC1=C(C(=O)Nc2ccc(Cl)c(C(=O)OC(C)C)c2)SCCO1,,RT-E138K,nucleotide incorporation,20
CC(C)=CCOc1cc(NC(=S)c2ccoc2C)ccc1Cl,,RT-W229F,nucleotide incorporation,1.59
CC(C)=CCOc1cc(NC(=S)c2ccoc2C)ccc1Cl,,RT-E138K,,0.66
CCN1c2ncc(CCOc3ccc(-c4ccc(CC(=O)O)cc4F)cc3C)cc2C(=O)N(C)c2cccnc21,IIIB,RT-K103N Y181C,nucleotide incorporation / radiometric,1
Cc1ccc(-n2c(SCC(=O)Nc3ccc(C(=O)O)cc3Cl)nnc2C(F)F)c2c1CCCC2,,RT-Y188L,nucleotide incorporation / radiometric,>2
Cc1cc(C)cc(S(=O)(=O)c2c(C(N)=O)[nH]c3ccc(F)c(F)c23)c1,,RT-K103N,nucleotide incorporation / radiometric,340.9
CCN1c2ncc(CCOc3ccc(-c4ccc(CC(=O)O)cc4)cc3CO)cc2C(=O)N(C)c2cccnc21,IIIB,RT-K103N Y181C,nucleotide incorporation / radiometric,1
Cc1cc(C)cc(S(=O)(=O)c2c(C(N)=O)[nH]c3ccc(Cl)cc23)c1,,RT-Y188L,nucleotide incorporation / radiometric,66.6
CCN1c2ncc(CCOc3ccc(CC(C)C(=O)O)c4ccccc34)cc2C(=O)N(C)c2ccc(F)nc21,,RT-K103N Y181C,nucleotide incorporation / radiometric,1–10
CCN1c2ncc(CCOc3ccc(C(=O)N(C)Cc4ccc(C(=O)O)cc4)cc3C)cc2C(=O)N(C)c2cccnc21,IIIB,RT-K103N Y181C,nucleotide incorporation / radiometric,>1
CCN1c2ncc(CCOc3cccc4c3CNC(=O)N4C)cc2C(=O)Nc2c(C)ccnc21,IIIB,RT-K103N Y181C,nucleotide incorporation / radiometric,>2
Cc1cc(C2CC2)cc(Cl)c1-n1c(Br)nnc1SCC(=O)Nc1ccc(C(=O)O)cc1Cl,,RT-Y188L,nucleotide incorporation / radiometric,>2
CCN1c2ncc(CCOc3ccc(CCC(=O)O)c4c3CCCC4)cc2C(=O)N(C)c2ccc(Cl)nc21,,RT-V106A,nucleotide incorporation / radiometric,>10
O=P(O)(O)OP(=O)(O)O,,RT-D113E,nucleotide incorporation / radiometric,2.3
Cc1c(Cc2ccccc2)nc(SCCCCO)[nH]c1=O,,RT-L100I,,1.04
CCn1c2cc(=NN=[N-])ccc-2[n+](C)c(=O)c2cccnc21,,RT-Y188L,nucleotide incorporation,87.1
O=c1cc(Cc2ccccc2)nc(NCCCCO)[nH]1,,RT-V179D,,>2.44
CCN1c2ncc(CCOc3ccc(/C=C/C(=O)O)c4ccccc34)cc2C(=O)Nc2c(C)ccnc21,,RT-Y188L,nucleotide incorporation / radiometric,>10
C=CC1(C(F)(F)F)OC(=O)Nc2ccc(Cl)cc21,A17,RT-K103N Y181C,nucleotide incorporation,23.1
CCN1c2ncc(CCOc3ccc(/C=C(\C)C(=O)O)c4ccccc34)cc2C(=O)N(C)c2ccc(Cl)nc21,,RT-Y188L,nucleotide incorporation / radiometric,>10
CCOC(=O)c1c(C(C)C)c(C#N)c(=N)n2ccccc12,,RT-Y181I,,1.42

For reference, 3 entries again:

SMILES,strain,mutations,method,result
CCOC(=O)C(=O)CC(=O)/C=C/c1cccn1Cc1ccccc1Cl,,N474A,RNase H / radiometric,12.2
C=C1c2cc(CCOc3ccc(NS(C)(=O)=O)c4ccccc34)cnc2N(CC)c2ncccc2N1C,,RT-Y188L,nucleotide incorporation / radiometric,>10
Cc1c(Cc2ccccc2)nc(SCCCCO)[nH]c1=O,,RT-L100I,,1.04